Experimental data from patent US20260191850A1, “USE OF 8-HYDROXYQUINOLINE DERIVATIVE” (Jiangsu Yahong Meditech Co., Ltd., priority 2022, published 2026).

Tests used:
Format in all cases: cell-based
[1] = system: Human Papillomavirus 11 (HPV11); assay: Transient transfection HPV replication assay (E1/E2 plasmids, NanoLuc reporter), HPV11; settings: SI50=CC50/EC50, HPV11 strain HE611260.1, C-33 A cells
Description: The antiviral activity of 7-nitro-8-hydroxyquinoline derivatives against human papillomavirus (HPV) was tested and evaluated using transient transfection assays. This evaluation system included plasmids expressing viral helicase E1 and replication origin binding protein E2, plasmids containing NanoLuc gene of which the expression was driven by a TK promoter (Promega company), and replication origin sequences of human papillomavirus strains listed below. […] The positions of replication origin sequences of the three NanoLuc reporter plasmids were 7825-7993:1-99, 7662-7901:1-99, and 7740-7837:1-102 for HPV-11 (NCBI Accession No. HE611260.1), HPV-16 (NCBI Accession No. KP212151.1), and HPV-18 (NCBI Accession No. KC470230.1), respectively. The positions of E1 open reading frame (ORF) sequences corresponding to HPV-11, HPV-16 and HPV-18 were 832-2781, 864-2813 and 914-2887 in the same sequences, respectively. The positions of E2 open reading frame (ORF) sequences corresponding to HPV-11, HPV-16 and HPV-18 were 2723-3826, 2755-3852 and 2817-3908 in the same sequences, respectively. The cells used for transient transfection were C-33A cells (ATCC HTB-31), and the culture medium was DMEM supplemented with Earle's salt, L-glutamine and 2% fetal bovine serum. In the experiment, the NanoLuc expression plasmid (5 ng/well) was co-transfected with the E1 and E2 expression plasmids of the homologous virus by using Lipofectamine LTXL and Plus Reagent (Invitrogen product, Thermo Fisher Scientific company). […] Meanwhile, the transfected cells were also seeded into duplicated dishes containing the same dilution of test drugs to assess cytotoxicity. All transfected monolayer cells were incubated at 37° C. for 48 hours. The NanoLuc activity expressed by the reporter plasmids was detected with Nano-Glo reagent (Promega company), the cell viability in cytotoxicity plates was measured with CellTiter-Glo reagent (Promega company), and the luminescence intensity was quantified on a microplate reader. The meanings of EC50, CC50, and SI50 were the same as those well-known in the art (where SI50=CC50/EC50), and were not described here. […]

[2] = system: Human Papillomavirus 18 (HPV18); assay: Transient transfection HPV replication assay (E1/E2 plasmids, NanoLuc reporter), HPV18; settings: SI50=CC50/EC50, HPV18 strain KC470230.1, C-33 A cells
Description: (§1) The antiviral activity of 7-nitro-8-hydroxyquinoline derivatives against human papillomavirus (HPV) was tested and evaluated using transient transfection assays. This evaluation system included plasmids expressing viral helicase E1 and replication origin binding protein E2, plasmids containing NanoLuc gene of which the expression was driven by a TK promoter (Promega company), and replication origin sequences of human papillomavirus strains listed below. […] The positions of replication origin sequences of the three NanoLuc reporter plasmids were 7825-7993:1-99, 7662-7901:1-99, and 7740-7837:1-102 for HPV-11 (NCBI Accession No. HE611260.1), HPV-16 (NCBI Accession No. KP212151.1), and HPV-18 (NCBI Accession No. KC470230.1), respectively. The positions of E1 open reading frame (ORF) sequences corresponding to HPV-11, HPV-16 and HPV-18 were 832-2781, 864-2813 and 914-2887 in the same sequences, respectively. The positions of E2 open reading frame (ORF) sequences corresponding to HPV-11, HPV-16 and HPV-18 were 2723-3826, 2755-3852 and 2817-3908 in the same sequences, respectively. The cells used for transient transfection were C-33A cells (ATCC HTB-31), and the culture medium was DMEM supplemented with Earle's salt, L-glutamine and 2% fetal bovine serum. In the experiment, the NanoLuc expression plasmid (5 ng/well) was co-transfected with the E1 and E2 expression plasmids of the homologous virus by using Lipofectamine LTXL and Plus Reagent (Invitrogen product, Thermo Fisher Scientific company). […] Meanwhile, the transfected cells were also seeded into duplicated dishes containing the same dilution of test drugs to assess cytotoxicity. All transfected monolayer cells were incubated at 37° C. for 48 hours. The NanoLuc activity expressed by the reporter plasmids was detected with Nano-Glo reagent (Promega company), the cell viability in cytotoxicity plates was measured with CellTiter-Glo reagent (Promega company), and the luminescence intensity was quantified on a microplate reader. The meanings of EC50, CC50, and SI50 were the same as those well-known in the art (where SI50=CC50/EC50), and were not described here.
(§2) J Med Chem. 2016; 59 (23): 10470-8. • Kachaeva, M. et al. In vitro activity of novel 1,3-oxazole derivatives against HPV. Ibnosina J Med Biomed Sci. 2017; 9 (4): 111-8.

[3] = system: Human Papillomavirus 16 (HPV16); assay: Transient transfection HPV replication assay (E1/E2 plasmids, NanoLuc reporter), HPV16; settings: SI50=CC50/EC50, HPV16 strain KP212151.1, C-33 A cells
Description: as §1, §2

| Molecule | SI50 [1] | SI50 [2] | SI50 [3] |
| --- | --- | --- | --- |
| Cc1ccnc2c(O)c(C#N)cc(Cl)c12 [Compound 131, 4-methyl-5-chloro-7-cyano-8-hydroxyquinoline] | 10 | 85 | 24 |
| O=[N+]([O-])c1ccc2c(C3CCCCC3)ccnc2c1O [Example 32, 4-cyclohexyl-7-nitroquinolin-8-ol] | >38 | – | – |
| O=[N+]([O-])c1ccc(O)c2ncccc12 [Compound A2, 5-nitro-8-hydroxyquinoline, reference compound] | 53 | 64 | 23 |
| Cc1cc(C#N)c(O)c2ncccc12 [Compound A1] | <3 | – | – |
| CNc1c([N+](=O)[O-])c(O)c2ncccc2c1Cl [Compound 7, 5-chloro-6-(methylamino)-7-nitroquinolin-8-ol] | 4 | – | – |
| O=[N+]([O-])c1ccc2c(C(F)(F)F)ccnc2c1O [Compound 62, 7-nitro-4-trifluoromethylquinolin-8-ol] | <5 | – | – |
| O=[N+]([O-])c1ccc2c(Cl)c(C3CC3)cnc2c1O [Compound 74, 4-chloro-3-cyclopropyl-7-nitroquinolin-8-ol] | 60 | >1271 | 369 |
| O=[N+]([O-])c1c(Cl)c(F)c2cccnc2c1O [Compound 123, 6-chloro-5-fluoro-7-nitroquinolin-8-ol] | <5 | – | – |
| O=[N+]([O-])c1cc(Cl)c2c(Cl)ccnc2c1O [Compound 29, 4,5-dichloro-7-nitroquinolin-8-ol] | 3 | – | – |
| O=[N+]([O-])c1c(Br)c(Cl)c2cccnc2c1O [Compound 114, 6-bromo-5-chloro-7-nitroquinolin-8-ol] | <5 | – | – |
| 4-methoxy-7-nitroquinolin-8-ol [Example 21] | <4 | – | – |
| N#Cc1c(Cl)c(Cl)c2cccnc2c1O [Compound 133, 5,6-dichloro-7-cyano-8-hydroxyquinoline] | <5 | – | – |
| Cl.O=[N+]([O-])c1cc(Cl)c2c(C(F)(F)F)ccnc2c1O [Compound 73, 5-chloro-7-nitro-4-(trifluoromethyl)-quinolin-8-ol hydrochloride] | 137 | – | 119 |
| Nc1nc2c(ncn2CCOCP(=O)(O)O)c(=O)[nH]1 [Positive control drug, 9-[2-(phosphonylmethoxy)ethyl]guanine, reference compound] | >119 | >68 | >73 |
| O=[N+]([O-])c1ccc2c(NC3COC3)ccnc2c1O [Example 19, 7-nitro-4-(3-oxetanylamino)quinolin-8-ol] | 8 | – | – |
| O=[N+]([O-])c1ccc2c(C3CCCCC3)ccnc2c1O [Compound 32, 4-cyclohexyl-7-nitroquinolin-8-ol] | >112 | >245 | 218 |
| O=[N+]([O-])c1c(Cl)c(Cl)c2cccnc2c1O [Compound 115, 5,6-dichloro-7-nitroquinolin-8-ol] | <4 | – | – |
| CN(C)C(=O)N1CCN(c2ccnc3c(O)c([N+](=O)[O-])ccc23)CC1 [Example 25, 4-(8-hydroxy-7-nitroquinolin-4-yl)-N,N-dimethylpiperazine-1-carboxamide] | >70 | 59 | 84 |
